A mixed list of measured activities; the numbers were collected in NIAID ChemDB.

All rows: growth or infection tests; agent: HIV-1; cells: MT-4; measure: EC50

Lines come from different laboratories, so protocols vary.

SMILES | strain | mutations | method | conditions | result
Cc1cc(C#Cc2cccc(N)c2)cc(C)c1Oc1ccnc(Nc2ccc(C#N)cc2)n1 | IIIB | L100I | MTT | - | 0.279 µM
CCN[C@H]1CO[C@@H]2OCC[C@H](OC(=O)N[C@@H](Cc3ccccc3)[C@H](O)CN(CC(C)C)S(=O)(=O)c3ccc4nc(NC5CC5)sc4c3)[C@@H]21 | NL4-3 | L10F V32I L33F M46L I54M A71V | p24 / luminescence | - | 0.0037 µM
Cc1cn([C@H]2C[C@H](N=[N+]=[N-])[C@@H](CO)O2)c(=O)[nH]c1=O | - | - | MTT | - | 0.01 µM
CCC(C)Oc1nc(N)cc(S(=O)(=O)c2cccc(C)c2)n1 | IIIB | - | cytopathic effect / MTT | - | 4.7 µM
CC(C)(C)NC(=O)[C@@H]1C[C@@H]2CCCC[C@@H]2CN1C[C@@H](O)[C@H](Cc1ccccc1)NC(=O)[C@H](CC(N)=O)NC(=O)c1ccc2ccccc2n1 | IIIB | PR-L10F I84V | cytopathic effect / XTT | - | 0.04 µM
CCc1cc(NCc2nc3c(Cl)ccc(Cl)c3o2)c(=O)[nH]c1C | NL4-3 | RT-Y188L | p24 | - | >3 µM
C#Cc1ccc(Nc2nccc(Oc3c(C)cc(-c4cn(CC(=O)Nc5ccc(F)cc5)nn4)cc3C)n2)cc1 | IIIB | E138K | MTT | - | >1.41 µM
Cc1cc(C#Cc2cccc(N)c2)cc(C)c1Oc1ccnc(NC2CCN(Cc3ccc(C#N)cc3)CC2)n1 | IIIB | F227L + V106A | MTT | - | >0.261 µM
CC(C)CN(C[C@@H](O)[C@H](Cc1ccccc1)NC(=O)[C@H](CC(N)=O)NC(=O)c1ccc2ccccc2n1)C(=O)NC(C)(C)C | NL4-3 | PR-L10R M46I | p24 | - | <0.2 µM
CCOCn1c(Cc2ccccc2)c(C(C)C)c(=O)[nH]c1=O | - | RT-Y181C | cytopathic effect / MTT | - | 2 µM
Cc1cn([C@H]2C[C@H](N=[N+]=[N-])[C@@H](CO)O2)c(=O)[nH]c1=O | - | - | RT activity | - | 0.0025 µM
Cc1ccc(Cl)cc1-n1nnnc1SCC(=O)Nc1ccccc1[N+](=O)[O-] | - | - | p24 | 10% FBS | <0.063 µM
CN[C@H]1CO[C@@H]2OCC[C@H](OC(=O)N[C@@H](Cc3ccccc3)[C@H](O)CN(CC(C)C)S(=O)(=O)c3ccc4nc(NC5CC5)sc4c3)[C@@H]21 | NL4-3 | L10I M46L I54V V82A | p24 / luminescence | - | 0.0032 µM
CCC(C)Oc1cc(=O)[nH]c(S(=O)(=O)c2cc(C)cc(C)c2)n1 | IIIB | - | cytopathic effect / MTT | - | 6.6 µM
Cc1cc(C#Cc2ccc(N)cc2)cc(C)c1Oc1ccnc(Nc2ccc(C#N)cc2)n1 | IIIB | F227L + V106A | MTT | - | 0.778 µM
COc1c(C)c2c(c(O)c1C/C=C(\C)CCC(=O)O)C(=O)OC2 | - | - | MTT | - | >0.2 µM
CO[P@](=O)(c1cc(C)cc(/C=C/C#N)c1)c1c(C(N)=O)[nH]c2ccc(Cl)c(F)c12 | BH10 | - | - | - | 0.001 µM
CC(C)Nc1cccnc1N1CCN(C(=O)c2cc3cc(NS(C)(=O)=O)ccc3[nH]2)CC1 | IIIB | - | MTT | - | 0.023 µM
C#Cc1ccc(Nc2nccc(Oc3c(C)cc(-c4cn(Cc5ccc(C#N)cc5)nn4)cc3C)n2)cc1 | IIIB | F227L and V106A | MTT | - | >7.18 µM
O=c1[nH]cnc2c1ncn2[C@H]1CC[C@@H](CO)O1 | HXB2D | - | p24 | - | 17 µM
C#Cc1ccc(Nc2nccc(Oc3c(C)cc(-c4cn(CCC(=O)OC)nn4)cc3C)n2)cc1 | IIIB | - | MTT | - | 0.27 µM
Cc1cc(C#Cc2ccccc2N)cc(C)c1Oc1ccnc(Nc2ccc(C#N)cc2)n1 | IIIB | F227L + V106A | MTT | - | >8.88 µM
COC(=O)N[C@H](C(=O)N[C@@H](Cc1ccccc1)[C@@H](O)CN(Cc1ccc(-c2ccccn2)cc1)NC(=O)[C@@H](NC(=O)OC)C(C)(C)C)C(C)(C)C | NL4-3 | L10I N37D G48V I54V L63P G73C I84V L90M | p24 / luminescence | - | >1 µM
C#Cc1ccc(Nc2nccc(Oc3c(C)cc(-c4cn(Cc5ccccc5)nn4)cc3C)n2)cc1 | RES056 | - | MTT | - | >8.55 µM
CN[C@H]1CO[C@@H]2OCC[C@H](OC(=O)N[C@@H](Cc3cccc(OC)c3)[C@H](O)CN(CC(C)C)S(=O)(=O)c3ccc4nc(NC(C)C)sc4c3)[C@@H]21 | NL4-3 | L10F L33I M36I M46I I54V K55R I62V L63P A71V G73S V82T | p24 / luminescence | - | 0.0032 µM
CCC(C)Oc1cc(N)nc(Sc2ccccc2OC)n1 | IIIB | - | cytopathic effect / MTT | - | >71 µM
CC(=O)Nc1cccc(C#Cc2cc(C)c(Oc3ccnc(Nc4ccc(C#N)cc4)n3)c(C)c2)c1 | IIIB | K103N | MTT | - | 0.036 µM
Cc1ccnc2c1NC(=O)c1cccnc1N2C1CC1 | IIIB | K103N | MTT | - | 12.35 µM
COc1ccc2c(Cc3c(-c4ccccc4)[nH]c4ccccc34)c(OC(C)=O)ccc2c1 | - | - | MTT | - | >19 µM
Cc1cc(C)c(-n2nnnc2SCC(=O)Nc2ccc(Cl)cc2[N+](=O)[O-])c(C)c1 | - | - | p24 | 50% human serum | <0.4 µM
CCC(C)Oc1cc(N)nc(Sc2cccc(Cl)c2)n1 | IIIB | - | cytopathic effect / MTT | - | 29 µM
C#Cc1ccc(Nc2nccc(Oc3c(C)cc(-c4cn(CC(=O)Nc5ccc(S(C)(=O)=O)cc5)nn4)cc3C)n2)cc1 | IIIB | L100I | MTT | - | >6.36 µM
CCCCSc1nc(N)cc(Cl)n1 | IIIB | - | cytopathic effect / MTT | - | 65 µM
Cc1cc(C)c(-n2nnnc2SCC(=O)Nc2ccc(C(N)=O)cc2C)c(C)c1 | - | - | p24 | 10% FBS | <0.031 µM
CC(C)CN(C[C@@H](O)[C@H](Cc1ccccc1)NC(=O)O[C@H]1CCOC1)S(=O)(=O)c1ccc(N)cc1 | NL4-3 | - | p24 / luminescence | - | 0.023 µM
O=C1N(Cc2ccc(CO)cc2)[C@H](Cc2ccccc2)[C@H](O)[C@@H](O)[C@@H](Cc2ccccc2)N1Cc1ccc(CO)cc1 | NL4-3 | PR-M46I V82T | p24 | - | <0.4 µM
Cc1cccc(C)c1Oc1ccnc(Nc2ccc(C#N)cc2)n1 | IIIB | RES056 | MTT | - | >12.1 µM
CCC(C)Oc1cc(=O)[nH]c(Sc2cc(C)cc(C)c2)n1 | IIIB | - | cytopathic effect / MTT | - | 35 µM
Cc1cc(C#Cc2cccc(N)c2)cc(C)c1Oc1ccnc(NC2CCN(Cc3ccc(S(N)(=O)=O)cc3)CC2)n1 | IIIB | Y181C | MTT | - | 0.027 µM
COc1ccc2c(Cc3c(C)[nH]c4ccccc34)c(OC(C)=O)ccc2c1 | - | - | MTT | - | >18 µM
Cc1ccnc2c1NC(=O)c1cccnc1N2C1CC1 | - | RT-K70R L100I | - | - | <1.5 µM
Cc1cn([C@H]2C[C@H](N=[N+]=[N-])[C@@H](CO)O2)c(=O)[nH]c1=O | IIIB | L100I | MTT | - | 0.005 µM
O=c1[nH]cnc2c1ncn2[C@H]1CC[C@@H](CO)O1 | HXB2D (RT-K65R) | RT-K65R | p24 | - | 22.1 µM
Cc1cc(C)c(-n2nnnc2SCC(=O)Nc2ccc(S(N)(=O)=O)cc2)c(C)c1 | - | - | p24 | 10% FBS | <1.25 µM
C#Cc1ccc(Nc2nccc(Oc3c(C)cc(-c4cn(-c5ccc(C(=O)OC)cc5)nn4)cc3C)n2)cc1 | RES056 | - | MTT | - | >242 µM

The first 6 rows once more:

SMILES,strain,mutations,method,conditions,result
Cc1cc(C#Cc2cccc(N)c2)cc(C)c1Oc1ccnc(Nc2ccc(C#N)cc2)n1,IIIB,L100I,MTT,-,0.279 µM
CCN[C@H]1CO[C@@H]2OCC[C@H](OC(=O)N[C@@H](Cc3ccccc3)[C@H](O)CN(CC(C)C)S(=O)(=O)c3ccc4nc(NC5CC5)sc4c3)[C@@H]21,NL4-3,L10F V32I L33F M46L I54M A71V,p24 / luminescence,-,0.0037 µM
Cc1cn([C@H]2C[C@H](N=[N+]=[N-])[C@@H](CO)O2)c(=O)[nH]c1=O,-,-,MTT,-,0.01 µM
CCC(C)Oc1nc(N)cc(S(=O)(=O)c2cccc(C)c2)n1,IIIB,-,cytopathic effect / MTT,-,4.7 µM
CC(C)(C)NC(=O)[C@@H]1C[C@@H]2CCCC[C@@H]2CN1C[C@@H](O)[C@H](Cc1ccccc1)NC(=O)[C@H](CC(N)=O)NC(=O)c1ccc2ccccc2n1,IIIB,PR-L10F I84V,cytopathic effect / XTT,-,0.04 µM
CCc1cc(NCc2nc3c(Cl)ccc(Cl)c3o2)c(=O)[nH]c1C,NL4-3,RT-Y188L,p24,-,>3 µM

Blank or dashed fields: not listed here. ECn: concentration that inhibits the pathogen or its effect by n%.